Values from PubChem BioAssay AID1259414 (Drosophila RNAi Screening Center, 2018).
Screen: 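Fly genes that alter Wolbachia amount inside host cells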 (primary screen). Cell system: Drosophila JW18 cells infected with Wolbachia. Reagents: long dsRNA against Drosophila genes, 0.25 µg dsRNA per well of a 384-well plate. Duration: 5 days. Conditions: cells persistently infected with Wolbachia before knock-down; no added drug. Detection: 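Imaged fluorescence in situ signal for Wolbachia 23S rRNA per DAPI-counted host cell, given as a robust z-score within each plate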. Scale: Wolbachia per cell robust z: higher = more Wolbachia per host cell than the plate typical. Call rule: 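Active if absolute robust z reaches 1.5 in two or more of three replicates, leaving out multi- or no-target dsRNAs, genes unexpressed in JW18 and A1 wells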.
The screen tested about 24,000 reagents; below is an unselected part of those with a known target gene and a result. In the full data, about 1,210 (5%) were called active. 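Inactive calls also include excluded dsRNAs with several or no targets, genes unexpressed in JW18, and well A1, regardless of score.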 Names joined by + are all predicted targets of the reagent.

CG11379 [DRSC18629] — Wolbachia per cell robust z, rep 1: 0.319; Wolbachia per cell robust z, rep 2: -0.389; Wolbachia per cell robust z, rep 3: -0.212; Outcome: inactive
CG18449 [DRSC06754] — Wolbachia per cell robust z, rep 1: -2.96; Wolbachia per cell robust z, rep 2: 1.12; Wolbachia per cell robust z, rep 3: 0.613; Outcome: inactive
CG12219 [DRSC17829] — Wolbachia per cell robust z, rep 1: 0.529; Wolbachia per cell robust z, rep 2: -0.0543; Wolbachia per cell robust z, rep 3: 0.398; Outcome: inactive
CG12219 [DRSC24690] — Wolbachia per cell robust z, rep 1: -0.0695; Wolbachia per cell robust z, rep 2: -0.548; Wolbachia per cell robust z, rep 3: -0.179; Outcome: inactive
ckd [DRSC08418] — Wolbachia per cell robust z, rep 1: -3.64; Wolbachia per cell robust z, rep 2: 1.36; Wolbachia per cell robust z, rep 3: -2.83; Outcome: inactive
CG9254 [DRSC01969] — Wolbachia per cell robust z, rep 1: -1.16; Wolbachia per cell robust z, rep 2: -0.999; Wolbachia per cell robust z, rep 3: -0.557; Outcome: inactive
Dim1 [DRSC00563] — Wolbachia per cell robust z, rep 1: 0.203; Wolbachia per cell robust z, rep 2: 0.596; Wolbachia per cell robust z, rep 3: 1.23; Outcome: inactive
Su(Tpl) [DRSC10954] — Wolbachia per cell robust z, rep 1: 0.557; Wolbachia per cell robust z, rep 2: -5.93; Wolbachia per cell robust z, rep 3: 0.893; Outcome: inactive
Su(Tpl) [DRSC26497] — Wolbachia per cell robust z, rep 1: 0.902; Wolbachia per cell robust z, rep 2: 0.68; Wolbachia per cell robust z, rep 3: 0.764; Outcome: inactive
Isha [DRSC04456] — Wolbachia per cell robust z, rep 1: 1.09; Wolbachia per cell robust z, rep 2: 1.71; Wolbachia per cell robust z, rep 3: 1.49; Outcome: inactive
SkpF + CG43795 [DRSC04120] — Wolbachia per cell robust z, rep 1: -3.91; Wolbachia per cell robust z, rep 2: 0.63; Wolbachia per cell robust z, rep 3: 0.613; Outcome: inactive
Gp93 [DRSC15827] — Wolbachia per cell robust z, rep 1: -1.54; Wolbachia per cell robust z, rep 2: -0.309; Wolbachia per cell robust z, rep 3: -0.232; Outcome: inactive
Gp93 [DRSC27798] — Wolbachia per cell robust z, rep 1: -0.0477; Wolbachia per cell robust z, rep 2: -2.65; Wolbachia per cell robust z, rep 3: -1.66; Outcome: active
Osbp [DRSC16779] — Wolbachia per cell robust z, rep 1: -4.15; Wolbachia per cell robust z, rep 2: -0.212; Wolbachia per cell robust z, rep 3: 1.57; Outcome: inactive
RnpS1 [DRSC15154] — Wolbachia per cell robust z, rep 1: 0.851; Wolbachia per cell robust z, rep 2: 1.52; Wolbachia per cell robust z, rep 3: 2.27; Outcome: active
gce [DRSC19613] — Wolbachia per cell robust z, rep 1: -3.37; Wolbachia per cell robust z, rep 2: 0.232; Wolbachia per cell robust z, rep 3: -1.2; Outcome: inactive
gce [DRSC19974] — Wolbachia per cell robust z, rep 1: -2.68; Wolbachia per cell robust z, rep 2: -0.00234; Wolbachia per cell robust z, rep 3: -1.77; Outcome: inactive
gce [DRSC23808] — Wolbachia per cell robust z, rep 1: 0.883; Wolbachia per cell robust z, rep 2: -1.09; Wolbachia per cell robust z, rep 3: 0.694; Outcome: inactive
gce [DRSC25266] — Wolbachia per cell robust z, rep 1: 0.809; Wolbachia per cell robust z, rep 2: 1.14; Wolbachia per cell robust z, rep 3: 0.238; Outcome: inactive
trk [DRSC03625] — Wolbachia per cell robust z, rep 1: 0.967; Wolbachia per cell robust z, rep 2: -3.31; Wolbachia per cell robust z, rep 3: 0.796; Outcome: inactive
CG9616 [DRSC16518] — Wolbachia per cell robust z, rep 1: -0.86; Wolbachia per cell robust z, rep 2: -0.0933; Wolbachia per cell robust z, rep 3: -1.45; Outcome: inactive
CG9616 [DRSC27905] — Wolbachia per cell robust z, rep 1: -3.87; Wolbachia per cell robust z, rep 2: 0.244; Wolbachia per cell robust z, rep 3: 1.68; Outcome: inactive
Gr64e + Gr64d [DRSC28375] — Wolbachia per cell robust z, rep 1: -0.163; Wolbachia per cell robust z, rep 2: -1.86; Wolbachia per cell robust z, rep 3: -0.826; Outcome: inactive
Ype [DRSC20301] — Wolbachia per cell robust z, rep 1: -3.02; Wolbachia per cell robust z, rep 2: -8.12; Wolbachia per cell robust z, rep 3: -0.781; Outcome: active
CG3106 [DRSC18279] — Wolbachia per cell robust z, rep 1: -0.0324; Wolbachia per cell robust z, rep 2: -0.65; Wolbachia per cell robust z, rep 3: 0.164; Outcome: inactive
CG3106 [DRSC29465] — Wolbachia per cell robust z, rep 1: -0.0708; Wolbachia per cell robust z, rep 2: -0.849; Wolbachia per cell robust z, rep 3: -0.299; Outcome: inactive
CG14855 [DRSC14979] — Wolbachia per cell robust z, rep 1: 0.786; Wolbachia per cell robust z, rep 2: -0.701; Wolbachia per cell robust z, rep 3: 1.16; Outcome: inactive
CG14855 [DRSC27350] — Wolbachia per cell robust z, rep 1: -0.729; Wolbachia per cell robust z, rep 2: -0.607; Wolbachia per cell robust z, rep 3: -1.36; Outcome: inactive
CG14855 [DRSC39068] — Wolbachia per cell robust z, rep 1: -0.794; Wolbachia per cell robust z, rep 2: 0.536; Wolbachia per cell robust z, rep 3: -2.05; Outcome: inactive
egh [DRSC18771] — Wolbachia per cell robust z, rep 1: -0.536; Wolbachia per cell robust z, rep 2: 0.927; Wolbachia per cell robust z, rep 3: -0.421; Outcome: inactive
egh [DRSC29898] — Wolbachia per cell robust z, rep 1: 0.85; Wolbachia per cell robust z, rep 2: 0.758; Wolbachia per cell robust z, rep 3: 0.954; Outcome: inactive
